Our source for the EC50 values is patent US20230346916A1.

As a reminder, the EC50 is the concentration needed to bring the measured effect to its halfway point. A lower EC50 goes with higher potency in that assay.

The target of the test is bat ACE2 (bACE2) receptor transiently expressed on 293T cells (bat).

Consider “SARS-CoV-2 RBD-Fc fusion protein (residues 331-524 of SARS-CoV-2 S protein with a C-terminal Fc of human IgG1)”, for which the EC50 came out at 0.08 µg/mL.
